Results taken from paper PMC4763181.

Tested on: C[S+](CC[C@H](N)C(=O)O)C[C@H]1O[C@@H](n2cnc3c(N)ncnc32)[C@H](O)[C@@H]1O
Test: purified protein
Details: HEK nucleosomes as co-substrate, 25 nM enzyme, 50 mM Tris pH 8.8, 5 mM MgCl2, 4 mM DTT, room temperature, 1 h, labelled compound (3H-AdoMet diluted with unlabelled AdoMet)

PfSET7FL (Plasmodium falciparum 3D7; S122A/T784A)
Km: 48 ± 7 µM | kcat: 0.0222 to 0.0417 s⁻¹
